This is an account of results in PubChem BioAssay AID1964107 (National Center for Advancing Translational Sciences (NCATS), 2024).

Protein sequences, listed by entry. Tags and fused reporters are not part of them. Lines headed by an entry give the natural chain unless they say otherwise; changes in a name come on top.
UniProt Q8JUX6: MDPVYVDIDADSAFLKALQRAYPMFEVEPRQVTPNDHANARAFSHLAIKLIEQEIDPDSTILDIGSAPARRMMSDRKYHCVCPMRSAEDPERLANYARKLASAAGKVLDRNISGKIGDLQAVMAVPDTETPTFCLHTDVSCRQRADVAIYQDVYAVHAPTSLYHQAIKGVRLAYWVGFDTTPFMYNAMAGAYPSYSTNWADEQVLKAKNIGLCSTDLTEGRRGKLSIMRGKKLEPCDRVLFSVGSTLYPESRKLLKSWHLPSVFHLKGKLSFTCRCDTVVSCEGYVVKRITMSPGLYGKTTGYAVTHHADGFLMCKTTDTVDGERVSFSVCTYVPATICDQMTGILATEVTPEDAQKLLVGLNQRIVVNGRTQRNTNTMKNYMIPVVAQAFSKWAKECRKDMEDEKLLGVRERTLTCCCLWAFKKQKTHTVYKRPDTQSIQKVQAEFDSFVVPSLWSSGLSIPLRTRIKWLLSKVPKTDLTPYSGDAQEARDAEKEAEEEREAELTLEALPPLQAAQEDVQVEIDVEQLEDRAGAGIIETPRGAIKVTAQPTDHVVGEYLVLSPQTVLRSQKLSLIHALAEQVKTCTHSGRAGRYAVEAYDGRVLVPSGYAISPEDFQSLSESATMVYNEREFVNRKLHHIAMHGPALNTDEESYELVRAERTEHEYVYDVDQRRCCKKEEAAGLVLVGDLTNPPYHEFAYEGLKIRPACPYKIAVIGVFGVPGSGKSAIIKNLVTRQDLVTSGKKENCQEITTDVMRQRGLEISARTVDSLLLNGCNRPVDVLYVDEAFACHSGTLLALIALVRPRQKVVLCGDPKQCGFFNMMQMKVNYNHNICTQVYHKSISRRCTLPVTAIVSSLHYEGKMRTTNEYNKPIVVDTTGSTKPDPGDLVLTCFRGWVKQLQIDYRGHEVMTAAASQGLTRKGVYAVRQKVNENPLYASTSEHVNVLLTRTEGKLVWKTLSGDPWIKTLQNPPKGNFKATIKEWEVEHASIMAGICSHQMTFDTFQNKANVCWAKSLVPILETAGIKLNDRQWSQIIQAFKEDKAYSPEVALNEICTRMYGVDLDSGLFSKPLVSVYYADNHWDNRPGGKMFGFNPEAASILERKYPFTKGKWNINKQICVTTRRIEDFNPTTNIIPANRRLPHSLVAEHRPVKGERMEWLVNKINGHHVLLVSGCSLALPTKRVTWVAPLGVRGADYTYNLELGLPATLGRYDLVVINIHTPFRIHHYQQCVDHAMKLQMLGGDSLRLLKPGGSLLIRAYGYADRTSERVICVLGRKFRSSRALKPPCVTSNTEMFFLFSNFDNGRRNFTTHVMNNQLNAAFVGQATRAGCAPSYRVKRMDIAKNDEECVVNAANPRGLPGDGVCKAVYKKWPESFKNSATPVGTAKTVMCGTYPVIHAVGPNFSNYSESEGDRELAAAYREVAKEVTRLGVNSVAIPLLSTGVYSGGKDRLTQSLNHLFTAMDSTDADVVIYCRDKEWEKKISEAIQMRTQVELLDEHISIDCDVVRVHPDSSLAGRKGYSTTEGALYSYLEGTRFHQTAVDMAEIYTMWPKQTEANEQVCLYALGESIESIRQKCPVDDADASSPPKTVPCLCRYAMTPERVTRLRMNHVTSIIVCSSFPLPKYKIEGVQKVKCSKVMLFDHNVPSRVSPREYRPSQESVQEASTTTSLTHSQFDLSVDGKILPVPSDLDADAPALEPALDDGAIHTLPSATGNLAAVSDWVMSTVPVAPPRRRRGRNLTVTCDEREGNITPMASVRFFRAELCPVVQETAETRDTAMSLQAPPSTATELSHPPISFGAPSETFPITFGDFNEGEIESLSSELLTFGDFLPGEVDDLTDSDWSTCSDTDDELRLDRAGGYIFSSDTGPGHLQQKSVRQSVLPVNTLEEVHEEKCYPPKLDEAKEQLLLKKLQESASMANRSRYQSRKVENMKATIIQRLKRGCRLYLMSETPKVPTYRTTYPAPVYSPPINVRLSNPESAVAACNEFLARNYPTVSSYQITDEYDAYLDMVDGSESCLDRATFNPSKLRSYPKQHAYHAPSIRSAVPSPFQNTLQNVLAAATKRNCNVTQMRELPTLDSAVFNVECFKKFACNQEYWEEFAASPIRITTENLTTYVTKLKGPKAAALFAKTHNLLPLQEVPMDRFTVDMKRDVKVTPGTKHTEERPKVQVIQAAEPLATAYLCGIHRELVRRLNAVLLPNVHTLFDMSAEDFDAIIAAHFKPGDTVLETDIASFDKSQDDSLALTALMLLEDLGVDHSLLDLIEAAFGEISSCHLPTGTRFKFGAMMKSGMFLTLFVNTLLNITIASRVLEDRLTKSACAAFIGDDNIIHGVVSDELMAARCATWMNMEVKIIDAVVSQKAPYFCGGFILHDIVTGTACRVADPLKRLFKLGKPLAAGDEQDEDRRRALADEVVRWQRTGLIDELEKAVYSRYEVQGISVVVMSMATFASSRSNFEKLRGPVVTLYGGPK

The entries are a selection whose mix differs from that of the whole data set. Inconclusive results are not listed. Calls of active or inactive are those of the source. Calls follow the shape of the full dose curve.
% is scaled to controls: 0 for no effect and ±100 for the full control effect.

The test addresses Polyprotein P1234 (Chikungunya virus (strain S27-African prototype)) (UniProt Q8JUX6). The experiment in a line: Primary qHTS for inhibitors of NSP2Pro chikungunya virus (CHIKV). Also: nearly all actives have a fitted effect of over 60% in size. The following applies: FRET peptide cleavage, fluorescence 1 h; activity change, negative = inhibition: at 24.9 µM (top of the series). The source says:
PI: Natalia J. Martinez Ph.D. National Center for Advancing Translational Sciences (NCATS), National Institute of Health (NIH), Rockville, Maryland Chikungunya virus (CHIKV) is a mosquito-borne RNA virus that has emerged as one of the most important global arboviral threats in the last decade. Although the first CHIKV vaccine has recently been FDA approved for use in healthy adults at increased risk, to date, there are no available antiviral drugs for CHIKV infection. CHIKV nsP2 protease plays a crucial role in the processing of the viral polypeptide precursor to release enzymes required for viral replication, thus making it a promising drug target for antiviral discovery. Here, we established a high-throughput pipeline to identify small molecule inhibitors of nsP2 proteolytic activity. The pipeline is composed of a suite of 1,536-well in vitro assays to support quantitative high-throughput (qHTS) screening campaigns. Specifically, we developed a fluorescence resonance energy transfer (FRET)-based assay using a fluorogenic peptide substrate encompassing an endogenous cleavage site and purified recombinant protease domain (nsP2pro). Using this assay, we interrogated ~37,000 small molecules, including those in drug repurposing libraries as well as chemically diverse and medicinal chemistry-friendly compounds. Hits were selected for follow-up validation against full-length nsP2 and an additional peptide. FRET-based 1,536-well assays for papain, hepatitis C virus NS3-4A, and human furin proteases were implemented to characterize compound selectivity. […] Novel compounds were identified to be potential nsP2 inhibitors and molecular docking analyses were performed to explain the binding mode of selected hits. In vitro antiviral activity was evaluated for a subset of compounds using a high-throughput CHIKV infection assay. To our knowledge, the pipeline presented here is unprecedented for CHIKV antiviral discovery research.
PROTOCOL TABLE (as described by Inglese J, Shamu CE and Guy RK. 2007) SEQUENCE No. (e.g., 1, 2, 3, etc.); […] (e.g., Cells, Incubation, Reagent, etc.); VALUE; DESCRIPTION. 1; Control / Compound; 20 nL; Echo 655 acoustic dispenser, Greiner 1536-well solid bottom black plate. 2; Enzyme; 4 uL; BioRAPTR FRD liquid dispenser (Beckman Coulter). 3; Incubation; 15 min; room temperature. 4; Reagent; 4 uL; 2.5 uM Peptide 2 substrate. 5; Incubation; 1 hr; room temperature. 6; Detection; Fluorescence; WiewLux microplate reader (PerkinElmer), 525 nm excitation, 598/25 nm emission. NOTES (numbers refer to sequence numbers above). 1. Briefly, 20 nL DMSO, positive control ZnAc (20nM final concentration), and test compounds were transferred into a 1,536-well solid bottom black plate (789176-F, Greiner One) via Echo 655 acoustic dispenser (Beckman Coulter). For primary screens, compounds were tested at 7 concentrations, 1:3 dilution points ranging from 25 uM to 34 nM. Follow-up confirmatory screens were carried out at 11 concentrations, 1:3 dilution points from 25 uM to 0.42 nM. 2. Four uL nsP2pro enzyme mix (150 nM final concentration) in 10 mM Tris-HCl pH 8.0 with 0.01% Tween 20 assay buffer was dispensed into the plate using a BioRAPTR FRD liquid dispenser (Beckman Coulter). 3. The plate was incubated at room temperature (protected from light) for 15 min 4. Four microliter of peptide 2 substrate (2.5 uM final concentration) in assay buffer was added to the plate. 5. After 1 hour, plates were immediately read on a ViewLux high-throughput CCD imager (Exposure = 10 sec, Gain = High, Speed = Slow, Binning = 2X). The above assay was also incorporated in the NCATS HTS facility41, which allowed for robotic liquid and compound dispensing, microplate handling, and fluorescence reading.. REFERENCE: Inglese J, Shamu CE and Guy RK, Reporting data from high throughput screening of small molecule libraries, Nature Chemical Biology, 2007, 3(8): 438-441. doi.org/10.1038/nchembio0807-438.
In the case of `N#Cc1c(-c2ccc(-c3no[n+]([O-])c3C#N)cc2)no[n+]1[O-]`, the activity change, negative = inhibition result is “inactive”.
Under `NC(=O)Nc1ccc([As](=O)(O)O)cc1` stands inactive: -3.28%.
As to `CCn1c(=O)n([C@@H]2CCN(CC3CCCCCCC3)C[C@H]2CO)c2ccccc21`, the activity change, negative = inhibition was inactive: -4.89%.
Under `CN(C)C1(c2ccccc2)CCC2(CC1)OCCc1c2[nH]c2ccc(F)cc12` (stereo unspecified) stands inactive: 1.72%; under `CN(C(=O)Cc1ccc(Cl)c(Cl)c1)[C@H]1CCCC[C@H]1N1CCCC1`, inactive: 0.692%; under `O=C(O[C@H]1CN2CCC1CC2)C1NCc2ccccc2[C@@H]1c1ccccc1` (stereo partly specified), inactive: -0.139%.
